Values of other authors as cited in patent US20080145918A1, “Method for the Detoxification of a Hazardous Compound” (published 2008).

System: experimental animal
Details: oral toxicity, dosage at which 50% of the used experimental animal died; cited from earlier work

Row | Molecule | LD50
1 | C[As](=O)(O)O | 1,800 mg/kg
2 | arsenocholine | 6,000 mg/kg
3 | trimethylarsineoxide | 10,600 mg/kg
4 | Inorganic arsenic(III(valency)) | 4.5 mg/kg
5 | arsenobetaine | 10000 mg/kg
6 | inorganic arsenic(V(valency)) | 14 to 18 mg/kg
